According to PubChem BioAssay AID651610 (Broad Institute, 2012):
The entries are a selection whose mix differs from that of the whole data set. Activity calls are given as the source filed them.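 Rule for the calls: active = mean replicate inhibition score of at least 50 and every replicate individually at or above 50; inconclusive = only one of the two criteria met; inactive = mean below 50 and not all replicates reaching 50.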

Test: inhibitors of HIV-1 Env-driven cell-cell fusion, primary screen, HeLa-JRFL effector, CEM21 target cells, luciferase (AID 651610);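 note: 0% = plate neutral controls and 100% = maraviroc near 300 nM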
Details: at 12.3 µM, stronger effect = higher value

Structure (SMILES)	inhibition
Nc1ccc(CCCCOc2ccccc2)cc1.O=[N+]([O-])c1cc([N+](=O)[O-])c(O)c([N+](=O)[O-])c1	inactive: 0.247%
CCOP(=O)(NC(=NC(C)c1ccccc1)NC(C)c1ccccc1)OCC (stereo not drawn)	inactive: -5.93%
CCC1=CC2Cc3nc4ccc(Cl)cc4c(N)c3C(C1)C2 (stereo not drawn)	inactive: -6.22%
O=P1(Nc2ccccn2)COc2ccccc2OC1	inactive: -128%
O=C(O)C(O)c1ccc(N(CCCl)CCCl)cc1.c1ccncc1 (stereo not drawn)	inactive: 20.6%
CCOP(=O)(Nc1ccc(C)cn1)OCC	inactive: 2.59%
CN(CCCl)Cc1cc(Cl)c(NC2=NCCN2)c(Cl)c1	inactive: 14%
Cc1ccc(S(=O)(=O)N(CCCN)CCCc2c(C)nc(N)[nH]c2=O)cc1.O=[N+]([O-])c1cc([N+](=O)[O-])c(O)c([N+](=O)[O-])c1	inactive: 10.8%
CC(C)/C=N\N=C(\N)N[N+](=O)[O-]	inactive: -13.3%
Cc1nc2ccc3ccccc3c2s1.O=[N+]([O-])c1cc([N+](=O)[O-])c(O)c([N+](=O)[O-])c1	inactive: -283%
O=[N+]([O-])c1cc([N+](=O)[O-])c(-c2cnn(-c3ccccc3)c2)c([N+](=O)[O-])c1	inactive: -2.83%
COc1ccccc1CNC(=O)COC(=O)C(O)(c1ccccc1)c1ccccc1	inactive: -9.75%
CCOC(=O)C(CC)C1=NC(C)(C)Cc2ccccc21.O=[N+]([O-])c1cc([N+](=O)[O-])c(O)c([N+](=O)[O-])c1 (stereo not drawn)	inactive: 11.5%
CN(C)C1(CNC(=O)c2ccc(S(C)(=O)=O)cc2)CCCCC1	inactive: 5.87%
O=[N+]([O-])c1cc([N+](=O)[O-])c(Nc2nnnn2CCO)c([N+](=O)[O-])c1	inactive: 7.55%
O=C(/C=C/c1ccccc1)OC1CN2CCC1CC2 (stereo not drawn)	inactive: 14.5%
Cc1ccc(C(=O)OC2CN3CCC2CC3)cc1 (stereo not drawn)	inactive: -3.83%
CC1CCC(C(C)C)C(OP(=O)(Nc2ccccn2)c2ccccc2)C1 (stereo not drawn)	inactive: 30.4%
CCCOc1ccc(NP(C)(=O)Oc2ccc(Cl)cc2)cc1 (stereo not drawn)	inactive: 5.82%
CP(=O)(Nc1ccc(SC(F)(F)F)cc1)Oc1ccccc1 (stereo not drawn)	inactive: 27%
Nc1cccc([As](=O)(O)c2ccccc2)c1	inactive: 5.02%
COc1ccc(-c2ccccn2)cc1.O=[N+]([O-])c1cc([N+](=O)[O-])c(O)c([N+](=O)[O-])c1	inactive: -32.3%
Cc1ccc(OCC(=O)OC2CN3CCC2CC3)cc1 (stereo not drawn)	inactive: -113%
